{"source": "patent US9101635B2", "about": "(priority 2009, dated 2015)", "key": {"[1]": {"system": "recombinant Zaire EBOV expressing green fluorescent protein (GFP-ZEBOV)", "type": "cell-based, EBOV (Zaire subtype, 1995 strain)", "conditions": "for GFP-ZEBOV SI: ratio CC50 / IC50"}, "[2]": {"system": "HIV/EBOV-GP pseudotype virus", "type": "cell-based, EBOV Zaire strain"}}, "data": [{"smiles": "O=C(Nc1ccc(Cl)c(Cl)c1)c1ccc([N+](=O)[O-])o1", "note": "[E]", "values": [{"measurement": "GFP-ZEBOV SI", "setting": "[1]", "value": 2.75}, {"measurement": "HIV/EBOV-Gp SI", "setting": "[2]", "value": 2.59}]}, {"smiles": "COc1ccc(OC)c(NC(=O)CC(c2ccc(OC)cc2OC)S(=O)(=O)c2ccccc2)c1", "note": "(stereo not drawn) [I]", "values": [{"measurement": "Infectious EBOV SI", "setting": "[1]", "value": 9}, {"measurement": "HIV/EBOV-GP SI", "setting": "[2]", "value": 12}]}, {"smiles": "CC[C@@]1(O)C(=O)OCc2c1cc1n(c2=O)Cc2cc3ccccc3nc2-1", "note": "[C]", "values": [{"measurement": "GFP-ZEBOV SI", "setting": "[1]", "value": 2.95}, {"measurement": "HIV/EBOV-Gp SI", "setting": "[2]", "value": 25}]}, {"smiles": "CCCN(C)c1c([N+](=O)[O-])cc([N+](=O)[O-])c2cccnc12", "note": "[A, 5,7-dinitro-8-[methyl(propyl)amino]quinoline]", "values": [{"measurement": "GFP-ZEBOV SI", "setting": "[1]", "value": 2}, {"measurement": "HIV/EBOV-Gp SI", "setting": "[2]", "value": 1.6}]}, {"smiles": "CCOc1ccc(NC(=O)CSc2nnc(COc3cccc(N(C)C)c3)n2-c2ccccc2)cc1", "note": "[K]", "values": [{"measurement": "HIV/EBOV-GP SI", "setting": "[2]", "value": 98}]}, {"smiles": "Cc1ccc(N(c2ccc(C)cc2)c2cccnc2)cc1", "note": "[H]", "values": [{"measurement": "GFP-ZEBOV SI", "setting": "[1]", "value": 1.1}, {"measurement": "HIV/EBOV-Gp SI", "setting": "[2]", "value": 2.12}]}, {"smiles": "COc1cccc(C(CC(=O)c2ccc(Cl)cc2)C(C#N)C#N)c1", "note": "(stereo not drawn) [B]", "values": [{"measurement": "GFP-ZEBOV SI", "setting": "[1]", "value": 5.15}, {"measurement": "HIV/EBOV-Gp SI", "setting": "[2]", "value": 3.28}]}, {"smiles": "O=c1c2ccccc2nc(/C=C/c2ccc([N+](=O)[O-])o2)n1-c1cccc(C(F)(F)F)c1", "note": "[D]", "values": [{"measurement": "GFP-ZEBOV SI", "setting": "[1]", "value": 4.03}, {"measurement": "HIV/EBOV-Gp SI", "setting": "[2]", "value": 27.2}]}, {"smiles": "N=c1c2c(-c3ccccc3)c(-c3ccccc3)n(Cc3ccco3)c2ncn1CCCn1ccnc1", "note": "[F]", "values": [{"measurement": "GFP-ZEBOV SI", "setting": "[1]", "value": 3.2}, {"measurement": "HIV/EBOV-Gp SI", "setting": "[2]", "value": 2.2}]}, {"smiles": "FC(F)C(F)(F)C1=Nc2ccccc2N=C(c2ccccc2)C1", "note": "[Compound G]", "values": [{"measurement": "Infectious EBOV SI", "setting": "[1]", "value": 6}, {"measurement": "GFP-ZEBOV SI", "setting": "[1]", "value": 5.5}, {"measurement": "HIV/EBOV-GP SI", "setting": "[2]", "value": 6}, {"measurement": "HIV/EBOV-Gp SI", "setting": "[2]", "value": 6.19}]}]}
